system: HIV-1IIIB; assay: HIV-1 full replication assay (HIV-1IIIB-infected MT-2 cells, supernatant read out on TZM-bl cells, β-Gal); format: cell-based; conditions: Therapeutic Index (TI)=TC50/IC50
Protocol: The antiviral activity of the compounds of the present invention was determined in a HIV-1 full replication assay.
In this assay, MT-2 cells that are infected with HIV-1IIIB were co-cultured with different concentration of the tested compounds for 3 days and then supernatant is transferred into new 384-well plates containing TZM-bl cells (also called JC53-bl). TZM-bl cells that could be infected by various kinds of HIV-1 strains stably express a great amount of HIV-1 receptor, co-receptor CD4 molecular, and co-receptor CXCR4 and CCR5. TZM-bl cells harbor LTR-luciferase and β-gal two report genes. The expression of luciferase and β-gal reporter directed by HIV-1 LTR can be activated by Tat protein generated after HIV infection, and the quantity of expression is proportional to the quantity of HIV-1. Compounds that interfere with virus replication in MT-2 cells, maturation of the virus, or post-entry steps in the HIV lifecycle decrease the luciferase signal or β-gal signal. In this experiment, BVM (Bevirimat, PA-457) is used as a positive control drug.
Method for Inhibiting HIV-1 Replication Assay:
The MT-2 cells are infected at a Multiciplicity (MOI) of 0.01 TCID50, and then the MT-2 cells suspension was diluted to a needed concentration. 90 μl of the MT-2 cells suspension from above was added into 384-well plates containing 10 μl of the tested compounds.
Compounds were dissolved in DMSO and tested as 11 points 3-fold serial dilutions. After addition of cells to compound plates, plates were placed to humidified 5% CO2 37 incubator for 3 days. 10 μl of cells culture supernatant from the incubated plates was transferred into new black 384-well plates.
Adjusted the TZMb1 cells concentration and 40 μl of TZMb1 cells was added into each well in the black 384-well plates. After addition of the TZMb1 cells to the black plates, black plates were placed to humidified 5% CO2 37 incubator for 24 h, then β-Gal activity was measured.
The anti viral activity %=(measured number-lowest mean number)/(highest mean number-lowest mean number)×100. The IC50 values were calculated by Median Equation and the IC curve was generated by Graphpad Prism V 5.03.
TC50 is referred to the toxicity in MT-2 cells by the compounds tested at 50% concentration; IC50 is referred to the inhibiting HIV-1IIIB replication in MT-2 cells by the compounds tested at 50% concentration; Therapeutic Index (TI)=TC50/IC50.

For CC(C)C1=C2[C@H]3CC[C@@H]4[C@@]5(C)CC[C@H](OC(=O)CC(C)(C)C(=O)O)C(C)(C)[C@@H]5CC[C@@]4(C)[C@]3(C)CC[C@@]2(c2nnc(-c3cccnc3)o2)CC1=O [Compound 27-9], which TI is on record?
Its TI is 22727.

CC(C)C1=C2[C@H]3CC[C@@H]4[C@@]5(C)CC[C@H](OC(=O)CC(C)(C)C(=O)O)C(C)(C)[C@@H]5CC[C@@]4(C)[C@]3(C)CC[C@@]2(c2cc(=O)n(-c3ccc(C#N)cc3)n2C)CC1=O [Compound 98-4] was tested. Which TI did it give?
The TI was 44444.

Which TI does the source give for CC(C)C1=C2[C@H]3CC[C@@H]4[C@@]5(C)CC[C@H](OC(=O)CC(C)(C)C(=O)O)C(C)(C)[C@@H]5CC[C@@]4(C)[C@]3(C)CC[C@@]2(c2cc(=O)n(CC(=O)N(C)C)n2C)CC1=O [Compound 91-8] here?
Its TI is 14546.

Which TI does the source give for CC(C)C1=C2[C@H]3CC[C@@H]4[C@@]5(C)CC[C@H](OC(=O)CC(C)(C)C(=O)O)C(C)(C)[C@@H]5CC[C@@]4(C)[C@]3(C)CC[C@@]2(c2nnc(-c3ccncc3)o2)CC1=O [Compound 27-13] here?
Its TI is 11765.

With CC(C)C1=C2[C@H]3CC[C@@H]4[C@@]5(C)CC[C@H](OC(=O)CC(C)(C)C(=O)O)C(C)(C)[C@@H]5CC[C@@]4(C)[C@]3(C)CC[C@@]2(c2cc(=O)n(Cc3ccc(Cl)cn3)n2C)CC1=O [Compound 91-9] as the compound, how does the TI read?
Its TI is 152941.

With CC(C)C1=C2[C@H]3CC[C@@H]4[C@@]5(C)CC[C@H](OC(=O)CC(C)(C)C(=O)O)C(C)(C)[C@@H]5CC[C@@]4(C)[C@]3(C)CC[C@@]2(Cc2nnc(-c3ccc(Cl)cc3F)o2)CC1=O [Compound 22-13] as the compound, how does the TI read?
The TI was 20588.

Which TI does the source give for CC(C)C1=C2[C@H]3CC[C@@H]4[C@@]5(C)CC[C@H](OC(=O)CC(C)(C)C(=O)O)C(C)(C)[C@@H]5CC[C@@]4(C)[C@]3(C)CC[C@@]2([C@@H](O)c2nnc(-c3ccc(Cl)cn3)o2)CC1=O [Compound 127-3] here?
Its TI is 55000.

CC(C)C1=C2[C@H]3CC[C@@H]4[C@@]5(C)CC[C@H](OC(=O)CC(C)(C)C(=O)O)C(C)(C)[C@@H]5CC[C@@]4(C)[C@]3(C)CC[C@@]2(Cc2cc(=O)n(-c3ccc(Cl)cn3)n2C)CC1=O [98′-2] was tested. Which TI did it give?
The TI was 151351.

With CC(C)C1=C2[C@H]3CC[C@@H]4[C@@]5(C)CC[C@H](OC(=O)CC(C)(C)C(=O)O)C(C)(C)[C@@H]5CC[C@@]4(C)[C@]3(C)CC[C@@]2(Cc2nnc(-c3ccc(C(F)(F)F)cn3)o2)CC1=O [Compound 22-12] as the compound, how does the TI read?
Its TI is 77500.

With CC(C)C1=C2[C@H]3CC[C@@H]4[C@@]5(C)CC[C@H](OC(=O)CC(C)(C)C(=O)O)C(C)(C)[C@@H]5CC[C@@]4(C)[C@]3(C)CC[C@@]2(Cc2nnc(-c3ccc(Cl)cc3)o2)CC1=O [Compound 22-1] as the compound, how does the TI read?
Its TI is 13939.

With CC(C)C1=C2[C@H]3CC[C@@H]4[C@@]5(C)CC[C@H](OC(=O)CC(C)(C)C(=O)O)C(C)(C)[C@@H]5CC[C@@]4(C)[C@]3(C)CC[C@@]2(Cc2nnc(-c3ncc(Cl)cn3)o2)CC1=O [Compound 22-16] as the compound, how does the TI read?
The TI was 81250.

CC(C)C1=C2[C@H]3CC[C@@H]4[C@@]5(C)CC[C@H](OC(=O)CC(C)(C)C(=O)O)C(C)(C)[C@@H]5CC[C@@]4(C)[C@]3(C)CC[C@@]2(Nc2nnc(-c3ncc(Cl)cn3)o2)CC1=O [Compound 141-3] was tested. Which TI did it give?
The TI was 12941.

With CC(C)C1=C2[C@H]3CC[C@@H]4[C@@]5(C)CC[C@H](OC(=O)CC(C)(C)C(=O)O)C(C)(C)[C@@H]5CC[C@@]4(C)[C@]3(C)CC[C@@]2(c2nnc(-c3ccc(Cl)cc3)o2)CC1=O [Compound 27-1] as the compound, how does the TI read?
The TI was 15151.

How did the TI turn out when COc1ccc(-c2nnc(C[C@@]34CC[C@]5(C)[C@H](CC[C@@H]6[C@@]7(C)CC[C@H](OC(=O)CC(C)(C)C(=O)O)C(C)(C)[C@@H]7CC[C@]65C)C3=C(C(C)C)C(=O)C4)o2)nc1 [Compound 22-17] was run?
Its TI is 71429.

CC(C)C1=C2[C@H]3CC[C@@H]4[C@@]5(C)CC[C@H](OC(=O)CC(C)(C)C(=O)O)C(C)(C)[C@@H]5CC[C@@]4(C)[C@]3(C)CC[C@@]2(c2nnc(-c3ccc(Cl)cn3)o2)CC1=O [Compound 27-3] was tested. Which TI did it give?
The TI was 24000.

CC(C)C1=C2[C@H]3CC[C@@H]4[C@@]5(C)CC[C@H](OC(=O)CC(C)(C)C(=O)O)C(C)(C)[C@@H]5CC[C@@]4(C)[C@]3(C)CC[C@@]2(c2nnc(N(CCN(C)C)c3ccc(Cl)cc3)o2)CC1=O [Compound 133-2] was tested. Which TI did it give?
Its TI is 276471.

Which TI does the source give for CC(C)C1=C2[C@H]3CC[C@@H]4[C@@]5(C)CC[C@H](OC(=O)CC(C)(C)C(=O)O)C(C)(C)[C@@H]5CC[C@@]4(C)[C@]3(C)CC[C@@]2(c2cc(=O)n(-c3ccc(Cl)cc3)n2CCN(C)C)CC1=O [Compound 156-1] here?
The TI was 111765.

Which TI does the source give for CC(C)C1=C2[C@H]3CC[C@@H]4[C@@]5(C)CC[C@H](OC(=O)CC(C)(C)C(=O)O)C(C)(C)[C@@H]5CC[C@@]4(C)[C@]3(C)CC[C@@]2(Cc2nnc(-c3cccnc3)o2)CC1=O [Compound 22-9] here?
Its TI is 7674.

With CC(C)C1=C2[C@H]3CC[C@@H]4[C@@]5(C)CC[C@H](OC(=O)CC(C)(C)C(=O)O)C(C)(C)[C@@H]5CC[C@@]4(C)[C@]3(C)CC[C@@]2(c2nnc(-c3ccc(Cl)cc3)n2CCN(C)C)CC1=O [Compound 116-3] as the compound, how does the TI read?
The TI was 60000.

With CC(C)C1=C2[C@H]3CC[C@@H]4[C@@]5(C)CC[C@H](OC(=O)CC(C)(C)C(=O)O)C(C)(C)[C@@H]5CC[C@@]4(C)[C@]3(C)CC[C@@]2(c2ncc(-c3ccc(Cl)cc3)o2)CC1=O [Compound 65] as the compound, how does the TI read?
Its TI is 305.

With CC(C)C1=C2[C@H]3CC[C@@H]4[C@@]5(C)CC[C@H](OC(=O)CC(C)(C)C(=O)O)C(C)(C)[C@@H]5CC[C@@]4(C)[C@]3(C)CC[C@@]2(c2cnc(-c3ccc(Cl)cc3)o2)CC1=O [Compound 77] as the compound, how does the TI read?
The TI was 1258.

For CCn1c([C@@]23CC[C@]4(C)[C@H](CC[C@@H]5[C@@]6(C)CC[C@H](OC(=O)CC(C)(C)C(=O)O)C(C)(C)[C@@H]6CC[C@]54C)C2=C(C(C)C)C(=O)C3)cc(=O)n1-c1ccc(Cl)cn1 [Compound 98-6], which TI is on record?
Its TI is 76471.

How did the TI turn out when CC(C)C1=C2[C@H]3CC[C@@H]4[C@@]5(C)CC[C@H](OC(=O)CC(C)(C)C(=O)O)C(C)(C)[C@@H]5CC[C@@]4(C)[C@]3(C)CC[C@@]2(Cc2nnc(-c3ccc(Cl)cc3)n2CCN(C)C)CC1=O [Compound 116-1] was run?
Its TI is 205882.

How did the TI turn out when CC(C)C1=C2[C@H]3CC[C@@H]4[C@@]5(C)CC[C@H](OC(=O)CC(C)(C)C(=O)O)C(C)(C)[C@@H]5CC[C@@]4(C)[C@]3(C)CC[C@@]2(Cc2nc(-c3ccc(Cl)cc3)no2)CC1=O [Compound 108-2] was run?
Its TI is 163.

CC(C)C1=C2[C@H]3CC[C@@H]4[C@@]5(C)CC[C@H](OC(=O)CC(C)(C)C(=O)O)C(C)(C)[C@@H]5CC[C@@]4(C)[C@]3(C)CC[C@@]2(Cc2nnc(-c3ccc(Br)cn3)o2)CC1=O [Compound 22-14] was tested. Which TI did it give?
The TI was 1176470.

For CC(C)C1=C2[C@H]3CC[C@@H]4[C@@]5(C)CC[C@H](OC(=O)CC(C)(C)C(=O)O)C(C)(C)[C@@H]5CC[C@@]4(C)[C@]3(C)CC[C@@]2(Cc2nnc(-c3ccc(Cl)cc3)n2CCN)CC1=O [Compound 116-4], which TI is on record?
The TI was 13200.

Source: patent publication US9428542B2, “Lupane triterpenoid derivatives and pharmaceutical use thereof” (priority 2012, dated 2016)
